Assay results: patent publication US20220356230A1 (published 2022)

Target: MERS-CoV (SARS-CoV-2) Spike Protein S1 (aa 1-725, His Tag) (Sino 40069-V08H) (MERS-CoV, UniProt K9N5Q8 18-725)

B1: mAb10913 (antibody, V domains shown)
VH: EVQLVESGGGLVQPGGSLRLSCAASGFTFRNYEMNWVRQAPGKGLEWVSYITSSGSTMYYADSVKGRFTISRDNAKNSLYLQMNSLRAEDTAVYYCARDGFYYYYAMDVWGQGTTVTVSS
VL: QSVLTQPPSVSAAPGQKVTISCSGSSSNIGNNYVSWYQQLPGTAPKLLIYDNNKRPSGIPDRFSGSKSGTSATLGITGLQTGDEADYYCGTWDSSLSVGRVFGTGTKVTVLG
**Q.** With B1 as the binder, how does the “Binding signal (MFI)” value read?
**A.** 14 MFI
